Patent US8343559B1, “Furanocoumarin removal from grapefruit juice by edible fungal hyphae” (The United States of America as represented by the …, priority 2008, dated 2013)

Columns and labels:
[1] = system: autoclaved Aspergillus niger; test: Changes in concentrations of compounds in grapefruit juice incubated with autoclaved Aspergillus niger for 4 days (HPLC); conditions: for Concentrations in grapefruit juice in the presence (+) of autoclaved Aspergillus niger / Concentrations in grapefruit juice in the absence (−) of autoclaved Aspergillus niger: 100 mL grapefruit juice, 4 days, 25° C.; for Concentrations in grapefruit juice in the presence (+) of autoclaved Aspergillus niger: 2 g (fresh weight) autoclaved A. niger; for Concentrations in grapefruit juice in the absence (−) of autoclaved Aspergillus niger: no fungus; for Share of compound in grapefruit juice bound to dead A. niger: autoclaved A. niger, 4 days (Table 1)
[2] = system: autoclaved Aspergillus niger; test: Recycle experiment: second treatment of grapefruit juice with autoclaved Aspergillus niger; conditions: for Remained in GFJ compared to control GFJ: after first and second 3 g of autoclaved A. niger, 4 hr each; for Additionally removed from pre-incubated GFJ: second 3 g autoclaved A. niger, 4 hr, 50 mL GFJ pre-treated with 3 g for 4 hr
Saccharomyces cerevisiae = test: Removal of nonpolar furanocoumarins in grapefruit juice by autoclaved, dried yeast; conditions: 3 g autoclaved, air-dried S. cerevisiae, 50 mL grapefruit juice, 4 hr, 25° C.

| SMILES | Concentrations in grapefruit juice in the presence (+) of autoclaved Aspergillus niger [1] [ppm] | Concentrations in grapefruit juice in the absence (−) of autoclaved Aspergillus niger [1] [ppm] | Share of compound in grapefruit juice bound to dead A. niger [1] | Remained in GFJ compared to control GFJ [2] [%] | Additionally removed from pre-incubated GFJ [2] | Removal (Saccharomyces cerevisiae) [%] |
| --- | --- | --- | --- | --- | --- | --- |
| CC(=CCOc1c2ccoc2cc2oc(=O)ccc12)CCC(O)C(C)(C)O (stereo not shown) [6′,7′-dihydroxybergamottin] | 1.72 | 2.46 | ~30% | 16 | approximately 25% | 73 |
| C/C(=C\COc1c2ccoc2cc2oc(=O)ccc12)CCC1OC1(C)C (stereo not shown) [6′,7′-epoxybergamottin] | 0.05 | 0.57 | Approximately 87% | 6 | ~26% | 82 |
| CC(C)=CCC/C(C)=C/COc1ccc2ccc(=O)oc2c1 [7-geranyloxycoumarin] | 0.13 | 0.33 |  |  |  |  |
| CC(C)=CCC/C(C)=C/COc1c2ccoc2cc2oc(=O)ccc12 [Bergamottin] | 0.39 | 1.75 |  |  | ~16% | 91 |
| COc1cc(/C=C/C(=O)O)ccc1O [Ferulic acid] | 0.48 | 0.43 |  |  |  |  |
| C[C@@H]1O[C@@H](O[C@H]2[C@H](Oc3cc(O)c4c(c3)O[C@H](c3ccc(O)cc3)CC4=O)O[C@H](CO)[C@@H](O)[C@@H]2O)[C@H](O)[C@H](O)[C@H]1O [Naringin] | 47.36 | 45.62 |  |  |  |  |
| C[C@@H]1O[C@@H](OC[C@H]2O[C@@H](Oc3cc(O)c4c(c3)O[C@H](c3ccc(O)cc3)CC4=O)[C@H](O)[C@@H](O)[C@@H]2O)[C@H](O)[C@H](O)[C@H]1O [Narirutin] | 9.16 | 8.47 |  |  |  |  |
| COc1ccc([C@@H]2CC(=O)c3c(O)cc(O[C@@H]4O[C@H](CO)[C@@H](O)[C@H](O)[C@H]4O[C@@H]4O[C@@H](C)[C@H](O)[C@@H](O)[C@H]4O)cc3O2)cc1O [Neohesperidin] | 2.40 | 2.17 |  |  |  |  |
| COc1ccc([C@@H]2CC(=O)c3c(O)cc(O[C@@H]4O[C@H](CO)[C@@H](O)[C@H](O)[C@H]4O[C@@H]4O[C@@H](C)[C@H](O)[C@@H](O)[C@H]4O)cc3O2)cc1 [Poncirin] | 2.14 | 2.29 |  |  |  |  |
